Measurements taken from patent publication US9540343B2 (Gilead Sciences, Inc., priority 2011, dated 2017).

Test system: MT-4 cells
Conditions: uninfected MT-4 cells, same protocol as Test A, 5 days, CellTiter-Glo

Q: For `NC(=O)c1cc(-c2cccnc2[C@H](Cc2cc(F)cc(F)c2)NC(=O)Cn2nc(C(F)(F)F)c3c2[C@@H]2C[C@@H]2C3)ccc1F` [Example 187, 5-(2-((S)-2-(3,5-difluorophenyl)-1-(2-((4aR,5aR)-3-(trifluoromethyl)-4,4-a,5,5a-tetrahydro-1H-cyclopropa[4,5]cyclopenta[1,2-c]pyrazol-1-yl)acetamido)ethyl)pyridin-3-yl)-2-fluorobenzamide], which CC50 is on record?
A: Its CC50 is 18.9 µM.
